Molecular target: RTA (Ricinus communis, UniProt P02879)
Experiment: Adenine-luciferase assay of RTA stem-loop catalysis at neutral pH, with or without ribosomes
Conditions: 60S or 80S ribosomes present

5′-CGCGCGdAGAGCGCG-3′ was tested, and the “stem-loop catalysis by RTA in the presence of ribosomes” value was “only adenine released from ribosome depurination was observed”.

— US20110136106A1, “METHODS FOR DETECTING RICIN AND RELATED COMPOUNDS AND USES THEREOF” (published 2011)
